Pooled drug test results. Numbers come from NIAID ChemDB, via PubChem.

Shared fields: whole-cell or culture tests; agent: Candida tropicalis

Conditions beyond the fields shown may differ between rows.

SMILES,endpoint,conditions,read by,strain,tested at,result
CC1C(=O)N(CCCc2ccccc2)C(=O)C1C,MIC,,broth dilution / turbidity,CCC 131-2000,,125 µg/mL
Nc1ncccc1-c1cc(Cc2ccc(COc3ccccn3)cc2)no1,MIC,,broth dilution,8662,,0.015 µg/mL
C[C@@H]1CC(=O)N(CCc2ccccc2)C1=O,MIC,,broth dilution / turbidity,CCC 131-2000,,62.5 µg/mL
CC(C)(O)c1cn(-c2ccc3ccccc3c2)nn1,inhibition,,broth dilution,URM 4262,2048 µg/mL,0%
C=CCc1ccc(O)c(OC)c1,MIC90,,turbidity,2829,,500 µg/mL
Cc1ccc(-n2cc(C(C)(C)O)nn2)cc1C,inhibition,,broth dilution,URM 4790,2048 µg/mL,0%
C[C@@H](c1ncncc1F)[C@](O)(Cn1cncn1)c1ccc(F)cc1F,MIC,,broth dilution,8662,,0.015 µg/mL
C[C@@H]1C(=O)N(Cc2ccccc2)C(=O)[C@@H]1C,MIC,,broth dilution / turbidity,CCC 131-2000,,62.5 µg/mL
CC(=O)OC[C@H]1O[C@@H](O[C@@H]2[C@@H](N=[N+]=[N-])[C@H](O)[C@H](O)[C@H]3OC(C)(C)O[C@H]32)[C@H](OC(C)=O)[C@@H](OC(C)=O)[C@H]1OC(C)=O,inhibition,,broth dilution / turbidity,C 131,15.6 µg/mL,3.47%
CC(C)(O)c1cn(-c2cccc3ccccc23)nn1,inhibition,,,URM 916,2048 µg/mL,0%
Clc1ccc(C(Cn2ccnc2)OCc2csc3c(Cl)cccc23)c(Cl)c1,MIC50,48 h,visual reading,65 isolates,,2 µg/mL
CC(C)(O)c1cn(-c2ccc([N+](=O)[O-])cc2)nn1,inhibition,,broth dilution,URM 4262,2048 µg/mL,0%
C[C@@H]1C(=O)N(CCCCc2ccccc2)C(=O)[C@@H]1C,MIC,,broth dilution / turbidity,CCC 131-2000,,62.5 µg/mL
CC1CC2=C(O1)c1ccccc1C(=O)C2=O,MIC,,broth dilution,Clinical isolate,,16 µg/mL

The first 2 rows once more:

SMILES | endpoint | conditions | read by | strain | tested at | result
CC1C(=O)N(CCCc2ccccc2)C(=O)C1C | MIC |  | broth dilution / turbidity | CCC 131-2000 |  | 125 µg/mL
Nc1ncccc1-c1cc(Cc2ccc(COc3ccccn3)cc2)no1 | MIC |  | broth dilution | 8662 |  | 0.015 µg/mL

Blank or dashed fields: not listed here. MIC50, MIC90 and the like: level of inhibition, or share of isolates inhibited. Percent inhibition refers to the dose given; in toxicity tests it is the harm to the cells.